Data as given in PubChem BioAssay AID602481 (Broad Institute, 2012).
The list shows a part of the results, in another mix than the full data. Active and inactive are the calls of the source. No stated cut-off is given here; in the data, active means inhibition above about 40%; inconclusive means no clear call, values can overlap the other calls; inactive means below that.

Test system: 7,8-diaminopelargonic acid synthase BioA (Mycobacterium tuberculosis)
Assay: M. tuberculosis BioA enzyme inhibitors, primary screen, biochemical, plate reader, single point, HTS (AID 602481)
Conditions: purified M. tuberculosis BioA enzyme, at 9.99 µM, active compounds read high

SMILES | inhibition
O=[N+]([O-])c1cccc(NC2=NCC(CBr)S2)c1 (configuration not stated) | inactive: 0.425%
O=P1(N(CCCl)CCCl)OCCCS1 (configuration not stated) | inactive: -2.34%
O=C(Nc1cc([As](=O)(O)O)ccc1O)c1ccccc1 | inactive: -1.72%
C[N+]1=C2C=CC=CC=C2SC12C([N+](=O)[O-])=CC([N+](=O)[O-])=C[C-]2[N+](=O)[O-] (configuration not stated) | inactive: 1.26%
Nc1ccc([As](=O)(O)c2ccc(N)cc2)cc1 | inactive: -1.76%
c1cc(-c2nn[nH]n2)ccc1-c1nn[nH]n1 | inactive: 3.09%
CC1CCN(C(=O)Oc2c(Cl)cc(Cl)c3cccnc23)CC1 | inactive: 2.03%
CC(C)c1nc(Nc2ccccc2)n(P(=O)(N(C)C)N(C)C)n1 | inactive: 0.151%
COc1ccc(C2=NCC(CBr)S2)cc1 (configuration not stated) | inactive: -0.181%
CCc1nc2c(n1)c1c(non1O)c1c2no[n+]1[O-] | inactive: -0.195%
CC(=O)N1C2C3N(C(C)=O)C1C1N(C(C)=O)C(C(N1C(C)=O)N3C(C)=O)N2C(C)=O | inactive: -1.52%
O=[N+]([O-])c1cccc2n[nH]nc12 | inactive: -0.0945%
O=C(NC(Sc1ccncn1)C(Cl)(Cl)Cl)c1ccccc1 (configuration not stated) | inactive: -0.277%
Oc1ccccc1CNc1ccccn1 | inactive: 0.491%
CC(C)CC(=O)NC(Sc1ccc(Cl)cc1)C(Cl)(Cl)Cl (configuration not stated) | inactive: 0.077%
Cc1ccc(N/C(=N/P(=O)(N2CCOCC2)N2CCOCC2)N2CCOCC2)cc1 | inactive: -1.5%
CN(C(=O)Cc1ccc(Cl)c(Cl)c1)[C@H]1CCCC[C@H]1N1CCCC1 | inactive: -1.17%
Clc1ccc(Cl)c(NC2=NCC(CBr)S2)c1 (configuration not stated) | inactive: -0.408%
CN1CCCC(OC(=O)C(c2ccccc2)c2ccccc2)C1 (configuration not stated) | inactive: -0.531%
Cc1ccc(OP(=O)(Nc2nccs2)Oc2ccc(C)cc2)cc1 | inactive: 0.253%
Nc1cccc2ccc([As](=O)(O)O)cc12 | inactive: -1.25%
CN(C)P(=O)(N(C)C)n1c(Nc2ccccc2)nnc1-c1ccccc1 | inactive: -0.253%
CCCC1OP(N)(=O)OCC1CC (configuration not stated) | inactive: -1.16%
O=C(O)c1ccccc1[As](=O)(O)O | inactive: 0.298%
CC(=O)Nc1ccc([As](=O)(O)O)cc1 | inactive: -1.79%
CN(C(=O)Cc1ccc(Cl)c(Cl)c1)[C@H]1CCCC[C@@H]1N1CCCC1 | inactive: -0.746%
CCOP(=O)(Nc1ccccc1)OCC | inactive: -0.51%
